Literature values in US20190290621A1, “COMPOSITIONS AND METHODS FOR TREATING HIV-1 LATENCY” (priority 2017, published 2019).

By UniProt entry, the sequences of proteins in these tests, tags left out.
UniProt Q92769, whole entry: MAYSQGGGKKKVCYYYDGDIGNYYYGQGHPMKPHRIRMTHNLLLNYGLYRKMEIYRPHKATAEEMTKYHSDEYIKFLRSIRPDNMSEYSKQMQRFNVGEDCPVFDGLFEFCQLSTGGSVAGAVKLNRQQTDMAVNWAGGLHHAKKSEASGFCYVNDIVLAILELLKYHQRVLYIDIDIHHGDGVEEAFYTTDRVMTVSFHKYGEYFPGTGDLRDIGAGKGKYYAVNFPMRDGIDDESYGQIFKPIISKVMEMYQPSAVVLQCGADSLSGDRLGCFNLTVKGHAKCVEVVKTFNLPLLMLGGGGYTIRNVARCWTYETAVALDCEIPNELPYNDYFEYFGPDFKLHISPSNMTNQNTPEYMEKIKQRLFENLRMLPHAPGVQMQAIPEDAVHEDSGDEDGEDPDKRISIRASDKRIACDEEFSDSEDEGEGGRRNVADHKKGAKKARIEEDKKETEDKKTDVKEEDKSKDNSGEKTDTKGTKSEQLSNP
UniProt Q13547, whole entry: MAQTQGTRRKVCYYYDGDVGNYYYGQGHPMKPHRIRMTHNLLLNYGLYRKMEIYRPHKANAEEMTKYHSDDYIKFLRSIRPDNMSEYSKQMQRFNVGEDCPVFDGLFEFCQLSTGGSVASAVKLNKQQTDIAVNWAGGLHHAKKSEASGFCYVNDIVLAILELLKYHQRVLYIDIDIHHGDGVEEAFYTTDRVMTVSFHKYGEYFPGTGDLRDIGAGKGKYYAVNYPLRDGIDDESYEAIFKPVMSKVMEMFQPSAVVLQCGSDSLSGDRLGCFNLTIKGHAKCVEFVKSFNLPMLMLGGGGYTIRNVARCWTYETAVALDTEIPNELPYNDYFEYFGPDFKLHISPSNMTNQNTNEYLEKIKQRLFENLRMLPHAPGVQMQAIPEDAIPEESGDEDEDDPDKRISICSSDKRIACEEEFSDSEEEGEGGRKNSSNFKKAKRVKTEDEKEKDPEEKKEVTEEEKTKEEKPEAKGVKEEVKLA

Experiments:
[1] = molecular target: HDAC2 (Homo sapiens, UniProt Q92769); details: cited from earlier work
[2] = molecular target: HDAC1 (Homo sapiens, UniProt Q13547); details: cited from earlier work

In the case of largazole [SDL148], the “potency against HDAC2” value [1] is listed as “picomolar range” and the “potency against HDAC1” value [2] is listed as “picomolar range”.
